Results of unrelated studies side by side (data: NIAID ChemDB).

Shared fields: tests in culture; species: Mycobacterium tuberculosis

MIC bound comes from a single tested concentration. MIC50, MIC90 and the like: level of inhibition, or share of isolates inhibited. Percent inhibition refers to the dose given; in toxicity tests it is the harm to the cells. An empty or dashed field is not shown. ECn: concentration that inhibits the pathogen or its effect by n%. Conditions beyond the fields shown may differ between rows.

| smiles | endpoint | dose | strain or isolate | mutations | read by | value |
|---|---|---|---|---|---|---|
| Cc1ccc(C)c(NC(=O)C(=O)C2C(=O)C3=C(CC2(C)C)Nc2ccccc2S3)c1 | MIC bound | - | H37Rv | - | BACTEC | >12.5 µg/mL |
| CC1COc2c(N3CCN(C)CC3)c(F)cc3c(=O)c(C(=O)O)cn1c23 | MIC50 | - | 55 isolates (RMP INH-R) | - | - | 2 µg/mL |
| CO[C@H]1/C=C/O[C@@]2(C)Oc3c(C)c(O)c4c(O)c(c(/C=N/OC(CC(C)C)C(=O)O)c(O)c4c3C2=O)NC(=O)/C(C)=C\C=C\[C@H](C)[C@H](O)[C@@H](C)[C@@H](O)[C@@H](C)[C@H](OC(C)=O)[C@@H]1C | MIC | - | H37Rv | - | - | >10 µg/mL |
| O=C1c2cc(Cl)ccc2-n2c1nc1ccncc1c2=O | MIC | - | H37Rv | - | - | 0.03 µg/mL |
| O=C1C=C[C@@H](COC2OC(CO)C(O)C(O)C2O)O1 | MIC | - | ETA-R | - | - | 6.3 µg/mL |
| O=[N+]([O-])c1cn2c(n1)OC[C@@H](OCc1ccc(OC(F)(F)F)cc1)C2 | MIC | - | HN878 | - | - | 0.024 µg/mL |
| C=CCO/N=C/c1c2c(O)c3c(O)c(C)c4c(c3c1O)C(=O)[C@@](C)(O/C=C/[C@H](OC)[C@@H](C)[C@@H](OC(C)=O)[C@H](C)[C@H](O)[C@H](C)[C@@H](O)[C@@H](C)/C=C/C=C(/C)C(=O)N2)O4 | MIC | - | H37Rv | - | - | 0.2 µg/mL |
| S=C([S-])NCCCCCCNC(=S)[S-].[K+].[K+] | MIC bound | - | H37Rv | - | BACTEC | >12.5 µg/mL |
| Cc1ccc(C(=O)/C=C/c2ccc(C(=O)N3C/C(=C\c4ccccc4)C(=O)/C(=C/c4ccccc4)C3)cc2)cc1 | inhibition | 6.25 µg/mL | H37Rv | - | - | 0% |
| Nc1nc(-c2cccc([N+](=O)[O-])c2)cc(-c2cc3cc(Br)ccc3nc2Cl)n1 | inhibition | 6.25 µg/mL | H37Rv | - | broth dilution | 99% |
| COc1ccc(N2CN(c3ccc(OC)cc3)CN(c3ccc(OC)cc3)C2)cc1 | MIC | - | H37Rv | - | colony count / visual reading | 250 µg/mL |
| CCN(CC)Cc1cc(N(c2cc(C)nc3cc(Cl)ccc23)S(=O)(=O)c2ccc([N+](=O)[O-])cc2)ccc1O | MIC | - | H37Rv | - | agar | 3.12 µg/mL |
| Fc1ccc(N2CN(c3ccc(F)cc3)CN(c3ccc(F)cc3)C2)cc1 | MIC | - | H37Rv | - | colony count / visual reading | 25 µg/mL |
| C[C@]1(COc2ccc(N3CCC(Oc4ccc(OC(F)(F)F)cc4)CC3)cc2)Cn2cc([N+](=O)[O-])nc2O1 | MIC | - | UT26 | - | - | 0.012 µg/mL |
| CCCCC/C=C\C/C=C\CCCCCCCC(=O)O | MIC | - | - | - | - | 50 µM |
| CCN(CC)Cc1cc(N(c2cc(C)nc3cc(Cl)ccc23)S(=O)(=O)c2ccc(Cl)cc2Cl)ccc1O | MIC | - | H37Rv | - | agar | 6.25 µg/mL |
| CCC(C(=O)O)c1ccccc1 | MIC | - | - | - | - | >1000 µM |
| N#Cc1c(-c2ccc(Cl)c(Cl)c2)cc(-c2cc3cc(Br)ccc3nc2Cl)nc1N | inhibition | 6.25 µg/mL | H37Rv | - | broth dilution | 3% |
| NC(=O)N1C(=O)C2C3C=CC(O3)C2C1=O | inhibition | 12.5 µg/mL | H37Rv | - | BACTEC | 22% |
| Fc1cccc(N2CN(c3cccc(F)c3)CN(c3cccc(F)c3)C2)c1 | MIC | - | H37Rv | - | colony count / visual reading | 62.5 µg/mL |
| O=C1OC(=O)C2C3OC(C(Cl)C3Cl)C12 | inhibition | 12.5 µg/mL | H37Rv | - | BACTEC | -7% |
| NC(=O)c1cnccn1 | MIC | - | Isolate W5457 | - | - | >900 µg/mL |
| Cc1c(N2C[C@@H]3CCCN[C@@H]3C2)c(F)cn2c(=O)c(C(=O)O)cc(C3CC3)c12 | MIC | - | ATCC 35837 | - | - | 0.031 µg/mL |
| CO[C@H]1/C=C/O[C@@]2(C)Oc3c(C)c(O)c4c(O)c(c(/C=N/OC/C=C(\C)CC/C=C(\C)CCC=C(C)C)c(O)c4c3C2=O)NC(=O)/C(C)=C\C=C\[C@H](C)[C@H](O)[C@@H](C)[C@@H](O)[C@@H](C)[C@H](OC(C)=O)[C@@H]1C | MIC | - | H37Rv | - | - | 20 µg/mL |
| CC1CC(C)(O)C2C3(C)C(=O)C34CCCC3(CC23C12CCC1(CCOC1=O)O2)O4 | inhibition | 12.5 µg/mL | H37Rv | - | BACTEC | 19% |
| O=C1/C(=C\c2ccccc2)CN(C(=O)c2ccc(/C=C/C(=O)c3ccc(Cl)c(Cl)c3)cc2)C/C1=C/c1ccccc1 | EC50 | - | H37Rv | - | - | >6.25 µg/mL |
| CC(C)CCC[C@H](C)CC(=O)O | MIC | - | - | - | - | >1000 µM |
| Cc1ccc(NC(=O)/C=C/C(=O)N2C/C(=C\c3ccccc3)C(=O)/C(=C/c3ccccc3)C2)cc1 | inhibition | 6.25 µg/mL | H37Rv | - | - | 4% |
| CO[C@H]1/C=C/O[C@@]2(C)Oc3c(C)c(O)c4c(O)c(c(/C=N/OCCOC(C)C)c(O)c4c3C2=O)NC(=O)/C(C)=C\C=C\[C@H](C)[C@H](O)[C@@H](C)[C@@H](O)[C@@H](C)[C@H](OC(C)=O)[C@@H]1C | MIC | - | H37Rv | - | - | 0.1 µg/mL |
| NC(=O)NC1C(C(=O)O)N(Cc2ccccc2)C(=O)N1Cc1ccccc1 | inhibition | 12.5 µg/mL | H37Rv | - | BACTEC | 0% |
| CC1(C)S[C@@H]2[C@H](NC(=O)[C@H](N)c3ccc(O)cc3)C(=O)N2[C@H]1C(=O)O | MIC | - | H37Rv | - | resazurin | 512 µg/mL |
| CO[C@H]1/C=C/O[C@@]2(C)Oc3c(C)c(O)c4c(O)c(c(/C=N/OCCCCCCCCCCOc5ccccc5)c(O)c4c3C2=O)NC(=O)/C(C)=C\C=C\[C@H](C)[C@H](O)[C@@H](C)[C@@H](O)[C@@H](C)[C@H](OC(C)=O)[C@@H]1C | MIC | - | H37Rv | - | - | 10 µg/mL |
| COc1cc2c(c3c1/c(=N\N(C)C)c1ccccc1n3C)C=CC(C)(C)O2 | MIC bound | - | H37Rv | - | BACTEC | >12.5 µg/mL |
| Nc1ccccc1C(=O)/C=C/c1cc2cc(Br)ccc2nc1Cl | inhibition | 6.25 µg/mL | H37Rv | - | broth dilution | 6% |
| Cc1ccccc1-n1c2nc(=O)n(C)c(=O)c-2nc2ccccc21 | inhibition | 12.5 µg/mL | H37Rv | - | BACTEC | 0% |
| O=S(=O)(Cc1cn(-c2ccccc2Cl)nn1)C1c2ccccc2-c2ccccc21 | MIC99 | - | Specimen 192 | - | broth dilution | 237 µM |
| Cc1ccc2[nH]c3c(C)c4cc[n+](C)cc4c(C)c3c2c1 | MIC | - | H37Rv | - | resazurin / fluorescence | 3 µM |
| O=C1c2cc(F)ccc2-n2c1nc1ccncc1c2=O | MIC | - | H37Rv | - | - | 0.5 µg/mL |
| CCCCCCCCCCCCO/N=C/c1c2c(O)c3c(O)c(C)c4c(c3c1O)C(=O)[C@@](C)(O/C=C/[C@H](OC)[C@@H](C)[C@@H](OC(C)=O)[C@H](C)[C@H](O)[C@H](C)[C@@H](O)[C@@H](C)/C=C/C=C(/C)C(=O)N2)O4 | MIC | - | H37Rv | - | - | >20 µg/mL |
| CC(=O)CC(c1ccccc1)c1c(O)c2ccccc2oc1=O | inhibition | 12.5 µg/mL | H37Rv | - | BACTEC | 0% |
| Cc1c2cc[n+](C)cc2c(C)c2c1[nH]c1ccc(Cl)cc12 | MIC | - | - | - | resazurin / fluorescence | 1 µg/mL |
| CC(=O)NC1C(=O)N(c2ccccc2)N=C1C | inhibition | 12.8 µg/mL | H37Rv | - | BACTEC | 11% |
| O=C(/C=C/C(=O)N1C/C(=C\c2ccccc2)C(=O)/C(=C/c2ccccc2)C1)Nc1ccc(Cl)c(Cl)c1 | EC50 | - | H37Rv | - | - | <6.25 µg/mL |
| CCOCCOCCO/N=C/c1c2c(O)c3c(O)c(C)c4c(c3c1O)C(=O)[C@@](C)(O/C=C/[C@H](OC)[C@@H](C)[C@@H](OC(C)=O)[C@H](C)[C@H](O)[C@H](C)[C@@H](O)[C@@H](C)/C=C/C=C(/C)C(=O)N2)O4 | MIC | - | H37Rv | - | - | 0.5 µg/mL |
| NNC(=O)c1ccncc1 | MIC | - | JAL 2278 | MDR | resazurin / fluorescence | >100 µg/mL |
| O=C(CCCC(=O)N/N=C/c1ccc(Cl)cc1Cl)N/N=C/c1ccc(Cl)cc1Cl | MIC | - | H37Rv | - | BACTEC | ≥12.5 µg/mL |
| N#Cc1c(-c2ccc(Cl)cc2Cl)cc(-c2cc3cc(F)ccc3nc2Cl)nc1N | inhibition | 6.25 µg/mL | H37Rv | - | broth dilution | 8% |
| CCCCC(CCC)O/N=C/c1c2c(O)c3c(O)c(C)c4c(c3c1O)C(=O)[C@@](C)(O/C=C/[C@H](OC)[C@@H](C)[C@@H](OC(C)=O)[C@H](C)[C@H](O)[C@H](C)[C@@H](O)[C@@H](C)/C=C/C=C(/C)C(=O)N2)O4 | MIC | - | H37Rv | - | - | 2 µg/mL |
| O=C(/C=C/c1cc2cc(F)ccc2nc1Cl)c1ccc(Br)cc1 | inhibition | 5 µg/mL | H37Rv | - | broth dilution | 98% |
| c1ccc(N2CN(c3ccccc3)CN(c3ccccc3)C2)cc1 | MIC | - | H37Rv | - | colony count / visual reading | 125 µg/mL |
| CCOC(=O)c1ccc(NC(=O)c2cnccn2)cc1 | MIC | - | H37Rv | - | BACTEC | ≥12.5 µg/mL |
| O=C1/C(=C/c2ccccc2)CN(C(=O)/C=C/c2ccc(Cl)cc2)C/C1=C\c1ccccc1 | inhibition | 6.25 µg/mL | H37Rv | - | - | 0% |
| Fc1ccc(C(F)(F)F)cc1N1CN(c2cc(C(F)(F)F)ccc2F)CN(c2cc(C(F)(F)F)ccc2F)C1 | MIC | - | H37Rv | - | colony count / visual reading | 50 µg/mL |
| O=C1/C(=C/c2ccccc2)CN(C(=O)c2ccc(/C=C/C(=O)c3ccc(Cl)cc3)cc2)C/C1=C\c1ccccc1 | EC50 | - | H37Rv | - | - | >6.25 µg/mL |
| Fc1ccc(-n2cc(CSC3c4ccccc4-c4ccccc43)nn2)cc1 | MIC99 | - | Specimen 192 | - | broth dilution | 66.94 µM |
| O=C1c2cc(Br)ccc2-n2c1nc1ccncc1c2=O | MIC | - | H37Rv | - | - | 0.03 µg/mL |
| CN1C(=O)/C(=N\n2c(-c3ccccc3)nc3ccccc3c2=O)c2ccccc21 | MIC | - | H37Rv | - | BACTEC | ≥12.8 µg/mL |
| Nc1ccc2nc3n(c(=O)c2c1)-c1ccccc1C3=O | MIC | - | H37Rv | - | - | 5 µg/mL |
| CC1(C)S[C@@H]2[C@H](NC(=O)C(C(=O)O)c3ccccc3)C(=O)N2[C@H]1C(=O)O | MIC | - | H37Rv | - | resazurin | 512 µg/mL |
| O=C1C(=O)c2cccnc2C(NCc2ccccc2)=C1Cl | MIC bound | - | H37Rv | - | - | >6.25 µg/mL |
| Cc1ccc2[nH]c3c(C)c4ccncc4c(C)c3c2c1 | MIC | - | Jal 2287 | MDR | resazurin / fluorescence | >100 µM |
| O=[N+]([O-])c1ccccc1-n1cc(CS(=O)(=O)C2c3ccccc3-c3ccccc32)nn1 | MIC99 | - | H37Rv | - | broth dilution | >231 µM |
| CCc1ccc2c(c1)C(=O)c1nc3ccncc3c(=O)n1-2 | MIC | - | H37Rv | - | - | 0.03 µg/mL |
| O=C1CCCCCCCCCCCCCCO1 | inhibition | 12.5 µg/mL | H37Rv | - | BACTEC | 15% |
| Clc1ccc(N2CN(c3ccc(Cl)cc3)CN(c3ccc(Cl)cc3)C2)cc1 | MIC | - | H37Rv | - | colony count / visual reading | 100 µg/mL |
| Nc1nc2c(c(-c3cc4cc(Br)ccc4nc3Cl)n1)-c1ccccc1C2 | inhibition | 6.25 µg/mL | H37Rv | - | broth dilution | 14% |
| CCc1ccc(-n2cc(CSC3c4ccccc4-c4ccccc43)nn2)cc1 | MIC99 | - | H37Rv | - | broth dilution | 261 µM |
| Nc1nc(-c2ccc(F)cc2)cc(-c2cc3cc(F)ccc3nc2Cl)n1 | inhibition | 6.25 µg/mL | H37Rv | - | broth dilution | 36% |
| Cc1cccc2c(=O)n3c(nc12)C(=O)c1ccccc1-3 | MIC | - | H37Rv | - | - | 0.13 µg/mL |
| CC1CC(CN2c3ccccc3Sc3ccccc32)C(C)N1C.Cl | MIC bound | - | H37Rv | - | BACTEC | >12.5 µg/mL |
| CCN(CC)Cc1cc(N(c2cc(C)nc3cc(Cl)ccc23)S(=O)(=O)c2ccc(Cl)s2)ccc1O | MIC | - | H37Rv | - | agar | 6.25 µg/mL |
| O=C(/C=C/c1cc2cc(Br)ccc2nc1Cl)c1cccc([N+](=O)[O-])c1 | inhibition | 6.25 µg/mL | H37Rv | - | broth dilution | 11% |
| COc1ccc2c(c1O)[C@]13CCN(C)[C@H](C2)[C@@H]1CCC(=O)C3 | MIC | - | H37Rv | - | BACTEC | ≥128 µg/mL |
| N#Cc1c(-c2ccc(Br)cc2)cc(-c2cc3cc(F)ccc3nc2Cl)nc1N | inhibition | 6.25 µg/mL | H37Rv | - | broth dilution | 99% |
| Cc1ccc(C(=O)Nc2ccc(S(=O)(=O)O)c3cc(S(=O)(=O)O)cc(S(=O)(=O)O)c23)cc1NC(=O)c1cccc(NC(=O)Nc2cccc(C(=O)Nc3cc(C(=O)Nc4ccc(S(=O)(=O)O)c5cc(S(=O)(=O)O)cc(S(=O)(=O)O)c45)ccc3C)c2)c1 | MIC bound | - | H37Rv | - | BACTEC | >12.5 µg/mL |
| FC(F)(F)c1cccc(N2CN(c3cccc(C(F)(F)F)c3)CN(c3cccc(C(F)(F)F)c3)C2)c1 | MIC | - | H37Rv | - | colony count / visual reading | 62.5 µg/mL |
| O=C1OC(c2ccco2)=N/C1=C\c1ccc(Cl)c(Cl)c1 | MIC bound | - | H37Rv | - | BACTEC | >12.5 µg/mL |
| O=[N+]([O-])c1ccc(-n2cc(CSC3c4ccccc4-c4ccccc43)nn2)cc1 | MIC99 | - | Specimen 192 | - | broth dilution | >250 µM |